Measurements reported in PubChem BioAssay AID504761 (Drosophila RNAi Screening Center, 2011).

Assay: 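Genome-wide fly cell screen for genes dengue virus requires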 (primary screen)
Cell system: D.Mel-2 cells from Drosophila
Knock-down reagent: long dsRNA against Drosophila genes
Challenge: infection with dengue virus type 2; dose and infection time not stated
Measured: 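Per well on two replicate plates, imaging gave the percent of cells positive for viral envelope protein, ranked by infection, and a nuclear count of cells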
Scale: infection score: higher = more virus-infected cells; cell count: higher = more cells in the well
Call rule: 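Low infection ranks in the two replicates (chance level up to 0.065) followed by a retest with a 1.5-fold or larger significant decrease, p below 0.05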
Meaning of the calls: active = confirmed: knock-down lowers infection; inactive = not picked or not confirmed
The deposit covers about 22,000 reagents; this is an unselected part of those with a known target gene and a result. Over the whole deposit, 116 (0.52%) got an active call. 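Calls depend on retest data that are not deposited; infection was ranked per plate without normalising between plates; the unit of the infection score is not given.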 Raw values are not corrected between plates. Unmarked entries are inactive. Reagents against one gene are numbered here. A plus sign joins genes that one reagent is predicted to hit. Not given: the amount of reagent, the time to read-out.

| gene knocked down | dsRNA no. | infection score, replicate 1 | infection score, replicate 2 | cell count, replicate 1 | cell count, replicate 2 |
| --- | --- | --- | --- | --- | --- |
| CG12609 (GeneID 32862) | 1 | 6.47 | 3.09 | 4651 | 5560 |
| trn (GeneID 39491) | 1 | 0.66 | 2.1 | 6180 | 6343 |
| Hr78 (GeneID 40378) | 1 | 6.1 | 7.43 | 6325 | 6484 |
| Hr78 (GeneID 40378) | 2 | 6.03 | 3.27 | 6765 | 7124 |
| CG3594 (GeneID 37964) | 1 | 2.03 | 18.3 | 6370 | 5906 |
| CG3594 (GeneID 37964) | 2 | 12 | 1.44 | 6431 | 6812 |
| cos (GeneID 35653) | 1 | 16.7 | 7.81 | 6189 | 6488 |
| cos (GeneID 35653) | 2 | 12.4 | 11.1 | 5703 | 4574 |
| Acer (GeneID 34189) | 1 | 10.8 | 0.13 | 6073 | 742 |
| Coq3 (GeneID 35383) | 1 | 16.7 | 8.84 | 6284 | 6075 |
| Top1 (GeneID 32458) | 1 | 13.8 | 19.2 | 1359 | 4778 |
| lqfR (GeneID 42632) | 1 | 1.21 | 5.7 | 6436 | 6530 |
| lqfR (GeneID 42632) | 2 | 9.57 | 6.14 | 6278 | 6110 |
| lqfR (GeneID 42632) | 3 | 8.83 | 6.6 | 6492 | 6378 |
| Vsx1 (GeneID 31470) | 1 | 2.18 | 5.43 | 6229 | 6608 |
| Vsx1 (GeneID 31470) | 2 | 2.15 | 2.42 | 6684 | 6742 |
| lncRNA:roX2 (GeneID 3772415) | 1 | 8.78 | 4.95 | 6559 | 6686 |
| lncRNA:roX2 (GeneID 3772415) | 2 | 16.2 | 9.53 | 6544 | 4827 |
| Pi4KIIalpha (GeneID 40670) | 1 | 2.25 | 8.75 | 7124 | 5931 |
| Pi4KIIalpha (GeneID 40670) | 2 | 17.4 | 15.1 | 3587 | 5587 |
| Pi4KIIalpha (GeneID 40670) | 3 | 9.81 | 8.24 | 5716 | 5573 |
| Rb97D (GeneID 43231) | 1 | 9.64 | 16.9 | 6101 | 2379 |
| Rb97D (GeneID 43231) | 2 | 5.47 | 3.18 | 6364 | 6732 |
| Clp (GeneID 33259) | 1 | 3.84 | 1.77 | 5860 | 5923 |
| CG13928 (GeneID 38195) | 1 | 1.41 | 1.79 | 6309 | 6493 |
| CG6592 (GeneID 38687) | 1 | 1.4 | 4.57 | 6004 | 5970 |
| Crg-1 (GeneID 43900) | 1 | 1.26 | 0.44 | 6420 | 6524 |
| Crg-1 (GeneID 43900) | 2 | 0.25 | – | 395 | 264 |
| CG8243 (GeneID 35890) | 1 | 12.8 | – | 2639 | 455 |
| CG8243 (GeneID 35890) | 2 | 16 | 8.1 | 6858 | 5974 |
| BaraA1 + BaraA2 | 1 | 0.33 | 0.18 | 6306 | 6132 |
| CG15515 (GeneID 43538) | 1 | 1.81 | 3.71 | 6084 | 6339 |
| elav (GeneID 31000) | 1 | 18.5 | 16.2 | 6103 | 6503 |
| CG16974 (GeneID 34713) | 1 | 6.76 | 9.42 | 6673 | 6197 |
| CG16974 (GeneID 34713) | 2 | – | – | 403 | 404 |
| cort (GeneID 33937) | 1 | 5.26 | 3.8 | 6728 | 6396 |
| cort (GeneID 33937) | 2 | 3.7 | 22.9 | 6751 | 6459 |
| c11.1 (GeneID 53436) | 1 | 3.12 | 2.94 | 5936 | 6047 |
| dare + CG30033 | 1 | 1.52 | 19.7 | 7088 | 6334 |
| CG5112 (GeneID 43083) | 1 | 3.44 | 2.8 | 6272 | 6542 |
| CG6931 (GeneID 39363) | 1 | 26.4 | 7.76 | 4229 | 5501 |
| CG14143 (GeneID 39256) | 1 | 7.46 | 3.27 | 5493 | 6147 |
| CG14143 (GeneID 39256) | 2 | 2.86 | 6.17 | 6004 | 5623 |
| grh (GeneID 37038) | 1 | 1.26 | 0.6 | 6247 | 5877 |
| grh (GeneID 37038) | 2 | 1.54 | 1.8 | 5789 | 5217 |
| grh (GeneID 37038) | 3 | 12.3 | 13.6 | 6063 | 5211 |
| grh (GeneID 37038) | 4 | 8.51 | 12.9 | 6273 | 5856 |
| grh (GeneID 37038) | 5 | 2.73 | 3.11 | 6224 | 6148 |
| CG12479 (GeneID 50344) | 1 | 6.64 | 1.69 | 5935 | 6381 |
| Trpgamma (GeneID 34991) | 1 | 18.8 | 3.31 | 5145 | 6013 |
| CG8858 (GeneID 36319) | 1 | 9.17 | 6.41 | 6564 | 6380 |
| TpnC25D (GeneID 33752) | 1 | 2.84 | 2 | 6540 | 6839 |
| TpnC25D (GeneID 33752) | 2 | 2.45 | 2 | 6652 | 6551 |
| Doc2 (GeneID 39038) | 1 | 4.62 | 9.85 | 6487 | 6872 |
| Doc2 (GeneID 39038) | 2 | 3.08 | 1.76 | 6196 | 6637 |
| AIMP2 (GeneID 39690) | 1 | – | 17.7 | 426 | 5181 |
| AIMP2 (GeneID 39690) | 2 | 18.3 | 0.66 | 6436 | 6865 |
| CG1636 (GeneID 31766) | 1 | 7.64 | 2.58 | 6190 | 6398 |
